Laboratory results reported in article PMC4316792, “The dehydrogenase region of the NADPH oxidase component Nox2 acts as a protein disulfide isomerase (PDI) resembling PDIA3 with a role in the binding of the activator protein p67^phox” (Frontiers in Chemistry, 2015).
pIC50: −log10 of the molar value.

Key:
[1] = biological target: NADPH oxidase (macrophage membrane liposomes, cytochrome b558) (Cavia porcellus, UniProt H0UXC6)
[2] = test system: NADPH oxidase in intact phagocytes / neutrophils; conditions: ref Le Cabec and Maridonneau-Parini, [1995]; cited from earlier work
NADPH oxidase = conditions: preincubated with the membrane fraction; reversed by reducing agents; ref Le Cabec and Maridonneau-Parini, [1995]; cited from earlier work
PDI = conditions: ref Gallina et al., [2002]; Raturi et al., [2005]; cited from earlier work
NusA-Nox2(357–570) = assay: Inhibition of PDI reductase activity of NusA-Nox2(357–570), DE-GSSG reduction; conditions: PAO 50 μM, NusA-Nox2(357–570) 2 μM, DTT 12.5 μM; one characteristic experiment; 40,306 without PAO

With `O=[As]c1ccccc1` (stereo not shown) the “inhibition of oxidase activation, in words” value ([1]; 1.56–200 μM (Figure 14A)) was “significant inhibition”, the “inhibition of oxidase activation supported by p67phox with cysteines mutated to serines” value ([1]; preliminary experiments, results not shown) was “inhibited” and the pIC50 ([1]; read-out: IC50, NADPH oxidase activation, membrane liposomes preincubated with inhibitor 5 min, p67^phox(1–212) 300 nM, prenylated Rac1 Q61L 300 nM, 3 experiments (Figure 14)) was 4.31. The “inhibition of oxidase activation in neutrophils” value [2] was “inhibit oxidase activation”, the “inhibition of oxidase activation in vitro” value (NADPH oxidase) was “inhibit oxidase activation” and the PDI inhibition (PDI) was “PDI inhibitor”. For the same molecule, the “Vmax of NusA-Nox2(357–570) in the presence of inhibitor (Figure 6D)” value (NusA-Nox2(357–570)) was 5,717 milli relative fluorescence units per min.
